Source: paper PMC12707362, “Targeting Aurora Kinases as Essential Cell‐Cycle Regulators to Deliver Multi‐Stage Antimalarials Against Plasmodium Falciparum” (Angewandte Chemie (International Ed. in English), 2025)

Test system: pool of barcoded drug-resistant P. falciparum parasites (Dd2 and 3D7 backgrounds)
Type: cell-based, Plasmodium falciparum
Conditions: 3xIC50, 14 days
Method: The pool consisted of 52 lines (Supplementary File S2) in both the Dd2 and 3D7 backgrounds, including wild-type, that were barcoded at the pfpare locus (PF3D7_0709700)^[18], with unique 11-bp barcode sequences. The pool (triplicate cultures of 1 mL) was exposed to 3 xIC50 of each test compound, including the positive control compound halofuginone that targets prolyl tRNA synthetase. Growth of the pool was measured every 2–3 days by flow cytometry (Beckman CytoFlex 5), staining with 1xSYBR Green I and 200 nM MitoTracker Deep Red, and parasitemia maintained within a range <5% parasitemia. At day 14, samples were harvested, lysed with 0.05% saponin and parasite pellets collected. Barcodes were amplified by PCR and quantified by sequencing using an Oxford Nanopore minION. The change in barcode proportion (log2 fold change, LFC) was measured relative to the no-drug control, with LFC>2.5 indicating cross-resistance.

## COc1cc(N2CCC(N3CCN(C)CC3)CC2)ccc1Nc1ncc(Cl)c(Nc2ccccc2S(=O)(=O)C(C)C)n1 [TAE684, NVP-TAE684]
  cross-resistance with known antimalarial resistance mechanisms: no cross‐resistance
